Data reported in patent publication US20220356230A1 (published 2022).
Read-outs that look alike come from different tables or passages of the source.

How the values were obtained:
[1] = biological target: SARS-CoV-2 RBD extracellular domain expressed with a C-terminal mouse IgG2a (SARS-COV-2 RBD-mFc) (SARS-CoV-2)
[2] = biological target: SARS-COV-2 RBD extracellular domain expressed with a C-terminal myc-myc-hexahistidine (SARS-COV-2 RBD-MMH) (SARS-CoV-2); test: SPR
[3] = biological target: SARS-COV-2 RBD extracellular domain expressed with a C-terminal myc-myc-hexahistidine (SARS-COV-2 RBD-MMH) (SARS-CoV-2); test: SPR Biacore, mAb captured on anti-human Fc, RBD-MMH in solution, 37 C
[4] = biological target: SARS-COV-2 RBD extracellular domain expressed with a C-terminal myc-myc-hexahistidine (SARS-COV-2 RBD-MMH) (SARS-CoV-2); test: SPR; remark: listed apart in the source
[5] = biological target: SARS-COV-2 RBD extracellular domain expressed with a C-terminal mouse IgG2a (SARS-COV-2 RBD-mFc) (SARS-CoV-2); test: SPR
[6] = biological target: T1, VLPs expressing VSV only (negative binding control) (vesicular stomatitis virus); test: MSD electrochemiluminescence, control VLPs on plate, mAb […], expt 1
[7] = biological target: T1, VLPs expressing VSV only (negative …); test: MSD electrochemiluminescence, control VLPs on plate, mAb 5.5 nM, expt 1
[8] = biological target: T1, VLPs expressing VSV only (negative …); test: MSD electrochemiluminescence, control VLPs on plate, mAb 5.5 nM, expt 2
[9] = biological target: T1, VLPs expressing VSV only (negative …); test: MSD electrochemiluminescence, control VLPs on plate, mAb […], expt 2
[10] = biological target: Bt-SARS-CoV-2 Spike Protein (RBD)(R319-F541).hFc (SARS-CoV-2); test: Luminex bead assay, antibody supernatant, biotinylated antigen on microspheres

B1: mAb10922 (antibody, V domains shown)
VH: EVQLVESGGGLVQPGGSLRLSCAASGFTFSIYEMNWVRQAPGKGLEWVSYITSSGTTIYYADSVKGRFTISRDNAKNSLYLQMNSLRAEDTAVYYCASSSSSGYYFDYWGQGTLVTVSS
VL: not shown
koff [1]: 2.42e-05 s⁻¹ | kon [1]: 719000 M⁻¹ s⁻¹ | t½ [1]: 478 min

B2: mAb10985 (antibody, V domains shown)
VH: EVQLVESGGGLVQPGRSLRLSCAASGFTFDDYAMHWVRQAPGKGLEWVSGISWNRGSIGYADSVKGRFTISRDNAKNSLYLQMSSLRAEDTALYYCAKDGERWDSVVVPSARNGMDVWGQGTTVTVSS
VL: QSVLTQPPSVSGAPGQRVTISCTGSSSNIGAGYDVHWYQQLPGTAPKLLIYGNSNRPSGVPDRFSGSKSGTSASLAITGLQAEDEADYYCQSYDSSLSGSYVFGTGTKVTVLG
t½ [2]: 7.5 min

B3: mAb11004 (antibody, V domains shown)
VH: QVQLVESGGGVVQPGRSLRLSCVASGFTFSIYGMDWVRQAPGKGLEWVAVISYDGSNKYYADSVKGRFTISRDNSKNTLYLQMNSLRPEDTAVYYCAKDREAAADAFDIWGQGTMVTVSS
VL: DIQMTQSPSSVSASVGDRVTITCRASQGISSWLAWYQQKPGKAPKLLIYAASSLHSGVPSRFSGSGSGTDFTLTISSLQPEDFATYYCQQANSFRLTFGGGTKVEIKR
t½ [2]: 3.6 min

B4: mAb11006 (antibody, V domains shown)
VH: EVQLVESGGGLVQPGGSLRLSCAASGFIVSRNYMSWVRQAPGKGLEWVSVIYSGGSTFYADSVKGRFTISRHNSKNTLYLQMNSLKAEDTAVYYCARELRGYFDYWGQGTLVTVSS
VL: DIQLTQSPSFLSASVGDRVTITCWASQGISSYLAWYQQKPGKAPKLLIYAASTLQSGVPSRFSGSGSGTEFTLTISSLQPEDFATYYCQLLNSYPYTFGQGTKLEIKR
t½ [2]: 26.3 min

B5: mAb11008 (antibody, V domains shown)
VH: EVQLVESGGGLVQPGGSLRLSCAASGFTVSSNYMTWVRQAPGKGLEWVSVIYSGGSTFYADSVKGRFTISRHNSENTLYLQMNSLRAEDTAVYYCARDLAAAGTDYWGQGALVTVSS
VL: DIQLTQSPSFLSASVGDRVTITCWASQGISSYLAWYQQKPGKAPKLLIYAASTLQSGVPSRFSGSGSGTEFTLTISSLQPDDFATYYCQHLNSYLYTFGQGTKLEIKR
t½ [2]: 3.5 min

B6: mAb10922 (antibody, V domains shown)
VH: EVQLVESGGGLVQPGGSLRLSCAASGFTFSIYEMNWVRQAPGKGLEWVSYITSSGTTIYYADSVKGRFTISRDNAKNSLYLQMNSLRAEDTAVYYCASSSSSGYYFDYWGQGTLVTVSS
VL: not shown
koff [3]: 0.00927 s⁻¹ | kon [3]: 1.04e+06 M⁻¹ s⁻¹

B7: mAb10985 (antibody, V domains shown)
VH: EVQLVESGGGLVQPGRSLRLSCAASGFTFDDYAMHWVRQAPGKGLEWVSGISWNRGSIGYADSVKGRFTISRDNAKNSLYLQMSSLRAEDTALYYCAKDGERWDSVVVPSARNGMDVWGQGTTVTVSS
VL: QSVLTQPPSVSGAPGQRVTISCTGSSSNIGAGYDVHWYQQLPGTAPKLLIYGNSNRPSGVPDRFSGSKSGTSASLAITGLQAEDEADYYCQSYDSSLSGSYVFGTGTKVTVLG
t½ [4]: 2.7 min

B8: mAb11004 (antibody, V domains shown)
VH: QVQLVESGGGVVQPGRSLRLSCVASGFTFSIYGMDWVRQAPGKGLEWVAVISYDGSNKYYADSVKGRFTISRDNSKNTLYLQMNSLRPEDTAVYYCAKDREAAADAFDIWGQGTMVTVSS
VL: DIQMTQSPSSVSASVGDRVTITCRASQGISSWLAWYQQKPGKAPKLLIYAASSLHSGVPSRFSGSGSGTDFTLTISSLQPEDFATYYCQQANSFRLTFGGGTKVEIKR
t½ [4]: 7.8 min

B9: mAb11008 (antibody, V domains shown)
VH: EVQLVESGGGLVQPGGSLRLSCAASGFTVSSNYMTWVRQAPGKGLEWVSVIYSGGSTFYADSVKGRFTISRHNSENTLYLQMNSLRAEDTAVYYCARDLAAAGTDYWGQGALVTVSS
VL: DIQLTQSPSFLSASVGDRVTITCWASQGISSYLAWYQQKPGKAPKLLIYAASTLQSGVPSRFSGSGSGTEFTLTISSLQPDDFATYYCQHLNSYLYTFGQGTKLEIKR
t½ [4]: 7.6 min

B10: mAb10922 (antibody, V domains shown)
VH: EVQLVESGGGLVQPGGSLRLSCAASGFTFSIYEMNWVRQAPGKGLEWVSYITSSGTTIYYADSVKGRFTISRDNAKNSLYLQMNSLRAEDTAVYYCASSSSSGYYFDYWGQGTLVTVSS
VL: not shown
koff [5]: 5.64e-05 s⁻¹ | kon [5]: 3.2e+06 M⁻¹ s⁻¹ | t½ (dissociative half-life) [5]: 205 min

B11: mAb10914 (antibody, V domains shown)
VH: EVQLVESGGGLVQPGGSLRLSCAASGLIVSRNYMIWVRQAPGKGLEWVSVIYSGGSTFYADSVKGRFTISRHNSKNTLYLQMNSLRAEDTAVYYCARDLGTGGMDVWGQGTTVTVSS
VL: DIQLTQSPSFLSASVGDRVTITCWASQGISSYLAWYQQKPGKAPKLLIYAASTLQSGVPSRFSGSGSGTEFTLTISSLQPEDFATYYCQQLNSYPLTFGGGTKVEIKR
Antibody Binding Signal (RLU) [6]: 85 RLU | Antibody Binding Signal (RLU) [7]: 1820 RLU

B12: mAb10922 (antibody, V domains shown)
VH: EVQLVESGGGLVQPGGSLRLSCAASGFTFSIYEMNWVRQAPGKGLEWVSYITSSGTTIYYADSVKGRFTISRDNAKNSLYLQMNSLRAEDTAVYYCASSSSSGYYFDYWGQGTLVTVSS
VL: not shown
Antibody Binding Signal (RLU) [8]: 129 RLU | Antibody Binding Signal (RLU) [9]: 39 RLU

B13: mAb10930 (antibody, V domains shown)
VH: EVQLVESGGGLVQPGRSLRLSCAASGFTFDDYAMYWVRQAPGKGLEWVSGISWNSGSIGYADSVKGRFTISRDNAKNSLYLQMNSLRAADTALYYCAKDKDWNSRGYYYYGMDVWGQGTTVTVSS
VL: not shown
Antibody Binding Signal (RLU) [8]: 291 RLU | Antibody Binding Signal (RLU) [9]: 38 RLU

B14: mAb10932 (antibody, V domains shown)
VH: EVQLVESGGGLVQSGGSLRLSCAASGLTVSSNYMSWVRQAPGKGLEWVSVIYSGGSTFYSDSVKGRFTISRHNSKNTLYLQMNSLRAEDTAVYYCARARGDAFDIWGQGTMVTVSS
VL: DIQMTQSPSSLSASVGDRVTITCQASQGISNYLNWYQQKPGKAPKLLISDASNLETGVPSRFSGSGSGTDFTFTISSLQPEDIATYYCQQYDNLRFFTFGPGTKVDIKR
Antibody Binding Signal (RLU) [6]: 35 RLU | Antibody Binding Signal (RLU) [7]: 105 RLU

B15: mAb10937 (antibody, V domains shown)
VH: QITLKESGPTLVKPTQTLTLTCTFSGFSLSTNVVGVGWIRQPPGKALEWLALIYWNDDKRYSPSLKSRLTITKDTSKNQVVLTMTNMDPVDTATYYCAHGPTGDYFDYWGQGTLVTVSS
VL: not shown
Antibody Binding Signal (RLU) [6]: 43 RLU | Antibody Binding Signal (RLU) [7]: 204 RLU

B16: mAb10938 (antibody, V domains shown)
VH: EVQLVESGGGLVQPGGSLRLSCAVSGFTVSSNYMSWVRQAPGKGLEWVSLIYSGGSTFYADSVKGRFTISRHNSKNTLYLQMNSLRAEDTAVYYCAREGGYSYDYNYWGQGTLVTVSS
VL: DIQMTQSPSSLSASVGDRVTITCQASQDIRNYLNWYQQKPGKAPKLLIYDASNLETGVPSRFSGIGSGTDFTFTISSLQPEDIATYYCQQYDNLPITFGQGTRLEIKR
Antibody Binding Signal (RLU) [6]: 37 RLU | Antibody Binding Signal (RLU) [7]: 395 RLU

B17: mAb10956 (antibody, V domains shown)
VH: EVQLVESGGGLVQPGGSLRLSCAASGLTVSSNYMSWVRQAPGKGLEWVSVIYSGGSTFYADSVKGRFTISRDNSKNTLYLQMNSLRAEDTAVYYCARDLIKYGMDVWGQGTTVTVSS
VL: DIQMTQSPSSLSASVGDRVTITCQASQDISNYLNWYQQKPGKAPKLLIYDASNLETGVPSRFSGSGSGTDFTFTISSLQPEDIATYYCQQYDNLPPHFGPGTKVDIKR
Antibody Binding Signal (RLU) [8]: 373 RLU | Antibody Binding Signal (RLU) [9]: 71 RLU

B18: mAb10966 (antibody, V domains shown)
VH: EVQLVESGGGLVQPGGSLRLSCAASGLTVSSNYMSWVRQAPGKGLEWVSVIYSGGSTFYADSVKGRFTISRDNSKNTLYLQMNSLRPEDTAVYYCAREGRIAATGYGMDVWGQGTTVTVSS
VL: DIQMTQSPSSLSASVGDRVTITCQASQDISNYLNWYQQKPGKAPKLLIYDASNLGTGVPSRFSGSRSGTDFTFTISSLQPEDIATYYCHQYDNLPQTFGPGTKVDIKR
Antibody Binding Signal (RLU) [8]: 97 RLU | Antibody Binding Signal (RLU) [9]: 88 RLU

B19: mAb10930 (antibody, V domains shown)
VH: EVQLVESGGGLVQPGRSLRLSCAASGFTFDDYAMYWVRQAPGKGLEWVSGISWNSGSIGYADSVKGRFTISRDNAKNSLYLQMNSLRAADTALYYCAKDKDWNSRGYYYYGMDVWGQGTTVTVSS
VL: not shown
Binding signal (MFI) [10]: 25900 MFI

B20: mAb10984 (antibody, V domains shown)
VH: EVQLVESGGGLVQPGGSLRLSCAASGLTVNRNYMSWVRQAPGKGLEWVSLIYSGGSTYYADSVKGRFTISRDNSKNTLYLQMNSLRLEDTAVYYCARGELGIPYGMDVWGQGTTVTVSS
VL: QSVLTQPPSVSAAPGQKVTISCSGSSSNIGNNYVSWYQQLPGTAPKLLIYDNNKRPSGIPDRFSGSKSGTSATLGITGLQTGDEADYYCGTWDSSLSAGVFGGGTKLTVLG
Binding signal (MFI) [10]: 22500 MFI
